Source: paper PMC10404671, “Deciphering the biosynthesis of a novel lipid in Mycobacterium tuberculosis expands the known roles of the nitroreductase superfamily” (The Journal of Biological Chemistry, 2023)

Tested on: CCCCCCCCCCCC(=O)SCCNC(=O)CCNC(=O)[C@H](O)C(C)(C)COP(=O)(O)OP(=O)(O)OC[C@H]1O[C@@H](n2cnc3c(N)ncnc32)[C@H](O)[C@@H]1OP(=O)(O)O
Assay: purified protein
Conditions: pH 7.2; 25.0 °C

Substance: TyzA (Mycobacterium tuberculosis H37Rv)
- Km: 14 ± 2 µM
